Values from PubChem BioAssay AID504761 (Drosophila RNAi Screening Center, 2011)
The deposit covers about 22,000 reagents; this is a random part of those with a known target gene and a result. Of all reagents, 116 (0.52%) are marked active. 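Calls depend on retest data that are not deposited; infection was ranked per plate without normalising between plates; the unit of the infection score is not given.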 The raw values are shown without normalisation. The numbers tell different reagents against one gene apart. Names joined by + are all predicted targets of the reagent. Not stated in the record: the amount of reagent, the time to read-out.

Test: 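Fly genes whose silencing reduces dengue virus type 2 infection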 (primary screen)
Cells: D.Mel-2 cells from Drosophila
Knock-down reagent: long dsRNA against Drosophila genes
Treatment: infection with dengue virus type 2; dose and infection time not stated
Measured: 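Per well on two replicate plates, imaging gave the percent of cells positive for viral envelope protein, ranked by infection, and a nuclear count of cells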
Scale: infection score: higher = more virus-infected cells; cell count: higher = more cells in the well
Rule for the call: 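Low infection ranks in the two replicates (chance level up to 0.065) followed by a retest with a 1.5-fold or larger significant decrease, p below 0.05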
Meaning of the calls: active = confirmed: knock-down lowers infection; inactive = not picked or not confirmed

gene knocked down	dsRNA no.	infection score, replicate 1	infection score, replicate 2	cell count, replicate 1	cell count, replicate 2	activity call
CG7251 (GeneID 33791)	1	2.74	1.66	5686	6220	inactive
CG7251 (GeneID 33791)	2	11.5	14.1	3804	5780	inactive
Ctns (GeneID 42723)	1	11	7.92	5003	5368	inactive
CG7606 (GeneID 8673956)	1	3.62	1	7063	6184	inactive
CG2021 (GeneID 38229)	1	5.43	0.74	5465	5679	inactive
CG2021 (GeneID 38229)	2	7.25	8.35	6733	5404	inactive
mRpS6 (GeneID 38535)	1	1.21	0.43	5779	5787	inactive
mRpS6 (GeneID 38535)	2	14	14.8	5128	4202	inactive
RpS5b (GeneID 41807)	1	10.9	14.3	6957	5851	inactive
icln (GeneID 36997)	1	4.5	19.1	6471	5380	inactive
icln (GeneID 36997)	2	6.33	5.02	5438	6171	inactive
CG8892 (GeneID 33719)	1	4.54	1.84	5531	6075	inactive
CG15546 (GeneID 43659)	1	3.64	2.35	5997	6798	inactive
CG15546 (GeneID 43659)	2	2.16	1.07	5983	6851	inactive
CG15546 (GeneID 43659)	3	11	16.2	6341	5829	inactive
CG17625 (GeneID 42678)	1	1.83	19.7	5799	4283	inactive
CG15306 (GeneID 31961)	1	9.14	10.5	1609	4985	inactive
CG15306 (GeneID 31961)	2	2.94	0.39	6729	6995	inactive
CG15306 (GeneID 31961)	3	4.81	6.96	6300	6282	inactive
CG9286 (GeneID 41690)	1	3.8	10.3	5898	6236	inactive
CG9286 (GeneID 41690)	2	20.6	4.07	4805	6835	inactive
CG5004 (GeneID 32698)	1	17.7	3.51	4802	6919	inactive
CG5004 (GeneID 32698)	2	12.2	3.13	5200	6432	inactive
CCT7 (GeneID 41054)	1	10.6	7.33	2873	3150	inactive
e(y)2 (GeneID 45848)	1	12.2	24.8	6004	5553	inactive
RnrL (GeneID 34392)	1	5.23	10.4	2942	2982	inactive
Tat (GeneID 32381)	1	2.04	4.84	6505	6466	inactive
SLO2 (GeneID 5740325)	1	14.1	14.3	5987	6422	inactive
SLO2 (GeneID 5740325)	2	6.65	7.95	6733	6089	inactive
SLO2 (GeneID 5740325)	3	4.65	16.9	839	6280	inactive
SLO2 (GeneID 5740325)	4	1.24	2.35	6469	6651	inactive
SLO2 (GeneID 5740325)	5	14.3	5.6	6411	7023	inactive
CG7720 (GeneID 42257)	1	0.16	1.8	7036	6224	active
CG7720 (GeneID 42257)	2	0.85	3.02	6606	6352	inactive
cbt (GeneID 33224)	1	2.93	10.2	6382	5795	inactive
cbt (GeneID 33224)	2	6.79	4.36	5652	5690	inactive
CG1640 (GeneID 32292)	1	2.78	7.95	6621	6391	inactive
CG11381 (GeneID 31067)	1	4.24	3.61	6551	6546	inactive
CG11381 (GeneID 31067)	2	5.54	13.3	5776	5393	inactive
TyrR (GeneID 42136)	1	3.73	4.34	6079	5915	inactive
CG17770 + Acam	1	1.27	5.06	6534	6042	inactive
CG17770 + Acam	2	1.18	4.14	6586	6186	inactive
CG17770 + Acam	3	4.74	5.87	5149	3235	inactive
CG17770 + Acam	4		14.2	323	5690	inactive
Or22c (GeneID 33381)	1	15.8	2.95	6610	6668	inactive
Or22c (GeneID 33381)	2	20.6	7.98	5838	5663	inactive
NKCC (GeneID 40663)	1	5.95	20.4	6467	6351	inactive
NKCC (GeneID 40663)	2	2.28	30.9	6940	5928	inactive
LysD + LysC (retired record)	1	1.99	6.84	5887	5647	inactive
LysD + LysC (retired record)	2	6.98	11.8	6164	6379	inactive
Smn (GeneID 39844)	1	0.38	5.28	6755	7312	inactive
Atg10 + CG12822	1	15.9	8.24	5479	1481	inactive
CG32117 (GeneID 317864)	1	2.55	11.6	5718	5212	inactive
dpn (GeneID 35800)	1	4.25	8.28	6712	6510	inactive
dpn (GeneID 35800)	2	13.9	4.72	6217	6180	inactive
CG15390 (GeneID 33422)	1	3.25	2.59	6647	6795	inactive
elfless (GeneID 35076)	1	16.3	4.05	5366	6519	inactive
CG13321 (GeneID 36430)	1	18.6	10	5615	6723	inactive
CG13321 (GeneID 36430)	2	9.64	30.5	7248	5737	inactive
CG31835 + CG42585	1	4.47	1.58	5546	5300	inactive
CG30127 (retired record) (GeneID 246473)	1	0.6	0.81	6337	5908	inactive
CG30127 (retired record) (GeneID 246473)	2	0.83	0.19	6016	5727	inactive
CG30127 (retired record) (GeneID 246473)	3	3.41	2.89	6450	5703	inactive
Ggamma30A + borr	1	14.1	18.4	5402	5014	inactive
CG7148 (GeneID 40432)	1	7.13	7.89	5862	6324	inactive
loco (GeneID 42672)	1	2.47	4.87	5988	5813	inactive
loco (GeneID 42672)	2	3.75	3.06	6502	6820	inactive
loco (GeneID 42672)	3	14.6	11.9	6983	6812	inactive
Mtmr6 (GeneID 37707)	1	5.72	4.56	6432	6167	inactive
Mtmr6 (GeneID 37707)	2	1.62	4.69	5863	5820	inactive
Smr (GeneID 32225)	1	13.8	31.5	4962	3434	inactive
Smr (GeneID 32225)	2	1.69	0.9	5222	5663	inactive
Fmo-2 (GeneID 35561)	1	10.8	22.4	6293	6338	inactive
CG5521 (GeneID 43242)	1	2.47		6394	316	inactive
CG5521 (GeneID 43242)	2	1.88	6.55	6797	5706	inactive

Just “cell count, replicate 2”, for 6 of the entries above:
RnrL (GeneID 34392) = 2982
Tat (GeneID 32381) = 6466
SLO2 (GeneID 5740325) #1 = 6422
SLO2 (GeneID 5740325) #2 = 6089
SLO2 (GeneID 5740325) #3 = 6280
SLO2 (GeneID 5740325) #4 = 6651
